Reference: US20250205260A1, “ADJUNCTIVE TREATMENT OF MYCOBACTERIAL DISEASES” (UNIVERSITY OF SOUTHERN CALIFORNIA, priority 2022, published 2025)

Test system: M. tuberculosis trehalose catalytic shift (metabolome)
Experiment: Metabolomics profiling / trehalose catalytic shift
Format: cell-based, Mycobacterium tuberculosis
Details: for M. tuberculosis metabolome after treatment compared with ΔtreS: ~410 metabolites, clustering, PCA, molecular phylogeny

Row | SMILES | M. tuberculosis metabolome after treatment compared with ΔtreS | M. tuberculosis metabolome after INH or BDQ with co-treatment, compared with ΔtreS (co-treatment with 6-treAz)
1 | N[C@H]1[C@H](O)[C@@H](O)[C@@H](O[C@H]2O[C@H](CO)[C@@H](O)[C@H](O)[C@H]2O)O[C@@H]1CO [4-TreNH2, (2R,3R,4S,5S,6R)-2-(((2R,3R,4S,5S,6S)-5-amino-3,4-dihydroxy-6-(hydroxymethyl)tetrahydro-2H-pyran-2-yl)oxy)-6-(hydroxymethyl)tetrahydro-2H-pyran-3,4,5-triol] | relatively similar to ΔtreS | 
2 | [N-]=[N+]=NC[C@H]1O[C@H](O[C@H]2O[C@H](CO)[C@@H](O)[C@H](O)[C@H]2O)[C@H](O)[C@@H](O)[C@@H]1O [6-TreAz, (2R,3S,4S,5R,6R)-2-(azidomethyl)-6-(((2R,3R,4S,5S,6R)-3,4,5-trihydroxy-6-(hydroxymethyl)tetrahydro-2H-pyran-2-yl)oxy)tetrahydro-2H-pyran-3,4,5-triol] |  | became similar
3 | N[C@H]1[C@@H](O[C@H]2O[C@H](CO)[C@@H](O)[C@H](O)[C@H]2O)O[C@H](CO)[C@@H](O)[C@@H]1O [2-TreNH2, (2R,3R,4S,5S,6R)-2-(((2R,3R,4R,5S,6R)-3-amino-4,5-dihydroxy-6-(hydroxymethyl)tetrahydro-2H-pyran-2-yl)oxy)-6-(hydroxymethyl)tetrahydro-2H-pyran-3,4,5-triol] | relatively similar to ΔtreS | 
4 | NC[C@H]1O[C@H](O[C@H]2O[C@H](CO)[C@@H](O)[C@H](O)[C@H]2O)[C@H](O)[C@@H](O)[C@@H]1O [6-TreNH2, (2R,3S,4S,5R,6R)-2-(aminomethyl)-6-(((2R,3R,4S,5S,6R)-3,4,5-trihydroxy-6-(hydroxymethyl)tetrahydro-2H-pyran-2-yl)oxy)tetrahydro-2H-pyran-3,4,5-triol] | metabolically different from ΔtreS | 
